{
  "source": "patent US20240352066A1",
  "about": "(priority 2021, published 2024)",
  "note": "Where a SMILES comes first, the peptide text is derived from it. [ ]: non-standard residue; d: D form. NCyclohexylmethylGly = O=C(O)CNCC1CCCCC1; N(tridecyl)Gly = CCCCCCCCCCCCCNCC(=O)O; Gly(N-2-aminoethyl) = NCCNCC(=O)O; Gly(N-cHex) = O=C(O)CNC1CCCCC1; NPhGly = O=C(O)CNc1ccccc1; NHexGly = CCCCCCNCC(=O)O; Nleu = CC(C)CNCC(=O)O; Nlys = NCCCCNCC(=O)O",
  "data": [
    {"tested_on": "HepG2 hepatocellular carcinoma cells", "experiment": "Mammalian cytotoxicity, MTT, HepG2", "type": "cell-based, human", "conditions": "Example 2; HepG2 TD50 divided by C. neoformans MIC", "description": "Hepatocellular carcinoma (HepG2), mouse fibroblast (3T3), human lung (HPL1A), and human keratinocyte (HaCat) cells were cultured in Dulbecco modified eagle media (DMEM) containing 10% fetal bovine serum (FBS) and 1% penicillin, streptomycin, and glutamine (PSG) at 37° C. and 5% CO2. Cells were collected and adjusted to […] to 4×10^5 cells/mL in phenol-red free DMEM and plated (100 μL) 96 well plates. 2-fold serial dilutions of 10× peptoid (11.1 μL) were added to each well in triplicate. Water (vehicle) was used as a negative control. Plates were incubated at 37° C. in 5% CO2 for 72 hours. Thiazolyl blue tetrazolium bromide (MTT) was added to each well (5 mg/mL; 20 μL) and incubated for 3 hours. Media was removed, DMSO (100 μL) was added, and plates were incubated at 37° C. for 10 minutes. Plates were read on a SpectraMax M5 plate reader (Abs. 570 nm). The concentration of compound resulting in a 50% reduction in growth compared to control (toxicity dose 50%; TD50) was determined using GraFit. This procedure was repeated three times on separate days.\nCytotoxicity against HepG2 hepatocellular carcinoma cells was done as previously described (Green et al. ACS infectious diseases, (2022); Corson et al. ACS medicinal chemistry letters 7 12, 1139-1144 (2016)). HepG2 cells were maintained in culture in T-75 flasks using Dulbecco's Modified Eagle's Media (DMEM) with phenol red pH indicator and supplemented with 10% fetal bovine serum (FBS) and 1% penicillin, streptomycin, and glutamine (PSG). The cells were incubated at 37° C. and 5% CO2 in a humidified incubator until desired confluency was achieved. The media was removed from the flask, and the cells were washed 1× with 10 mL of phosphate-buffered saline (PBS; 11.8 mM phosphate, 140.4 mM NaCl; pH 7.4) which was then discarded. To remove the adhered cells from the flask, 2 mL of trypsin was added, and the cells were incubated for 10 minutes. To quench the trypsin, 8 mL of phenol red-free DMEM with 10% FBS and 1% PGS was added, and the cell solution was transferred to a 15 mL conical tube. After the cells were pelleted by centrifugation at 1000 rpm for 5 minutes, the supernatant was poured off and cells resuspended in the volume of phenol red-free media needed for the assay. Cell concentration was determined by counting with a hemocytometer, and the solution was diluted with media until a concentration of 1×10^5 cells/mL was achieved. A 100 μL aliquot of cell solution was added to each well of a 96-well plate, apart from the 3 wells used for a media control. Cells were incubated for 2-3 hours at 37° C. and 5% CO2 until cells were adherent.\nCompound stocks of 20 mg/mL were used to prepare 2-fold serial dilutions of each compound in sterile water, giving final concentrations of 200, 100, 50, 25, 12.5, 6.25, 3.13 and 1.56 μg/mL. 11.1 μL of prepared compound solutions was added to the appropriate wells in triplicate. A negative vehicle control of sterile water, as well as the aforementioned media control, were used. The plates were incubated for 72 hours at 37° C. and 5% CO2. After incubation, 20 μL of 5 mg/mL 3-(4,5-dimethylthiazol-2-yl)-2,5-diphenyltetrazolium bromide (MTT) in water was added to each well. The plate was incubated for 3 hours at 37° C. and 5% CO2. Media was removed from each well using a sterile glass Pasteur pipette. 100 μL of DMSO was added to each well and incubated for 15 minutes at 37° C. Absorbance was read at 570 nm using a SpectraMax M5 Plate Reader. […]", "values": [
      {"smiles": "CCCCCCCCCCCCCNCC(=O)N(CC(=O)N(CCCCN)CC(=O)N(CCN)CC(=O)N(CC(N)=O)c1ccccc1)c1ccccc1", "note": "[Compound 14] (H-[N(tridecyl)Gly][NPhGly][Nlys][Gly(N-2-aminoethyl)][NPhGly]-NH2)", "Selectivity Ratio": "26-52"},
      {"smiles": "CCCCCCCCCCCCCNCC(=O)N(CC(=O)N(CCCCN)CC(=O)N(CCN)CC(=O)N(CC(N)=O)CC1CCCCC1)CC1CCCCC1", "note": "[Compound 12] (H-[N(tridecyl)Gly][NCyclohexylmethylGly][Nlys][Gly(N-2-aminoethyl)][NCyclohexylmethylGly]-NH2)", "Selectivity Ratio": "20-40"},
      {"smiles": "CCCCCCCCCCCCCNCC(=O)N(CC(=O)N(CCCCN)CC(=O)N(CCN)CC(=O)N(CC(N)=O)CC(C)C)CC(C)C", "note": "[Compound 9] (H-[N(tridecyl)Gly][Nleu][Nlys][Gly(N-2-aminoethyl)][Nleu]-NH2)", "Selectivity Ratio": 53},
      {"smiles": "CCCCCCCCCCCCCNCC(=O)N(CCCCCC)CC(=O)N(CCCCN)CC(=O)N(CCN)CC(=O)N(CCCCCC)CC(N)=O", "note": "[Compound 10] (H-[N(tridecyl)Gly][NHexGly][Nlys][Gly(N-2-aminoethyl)][NHexGly]-NH2)", "Selectivity Ratio": "19-39"},
      {"smiles": "CCCCCCCCCCCCCNCC(=O)N(CCCCN)CC(=O)N(CC(=O)N(CC(=O)N(CCN)CC(N)=O)C1CCCCC1)C1CCCCC1", "note": "[Compound 3] (H-[N(tridecyl)Gly][Nlys][Gly(N-cHex)][Gly(N-cHex)][Gly(N-2-aminoethyl)]-NH2)", "Selectivity Ratio": 34}
    ]}
  ]
}
